Source: US20120129928A1, “Chlorine-Free Liquid Microbicide Treatment” (University of Georgia Research Foundation, Inc., priority 2010, published 2012)
Several values for one entry are separate records, joined by “and”; a condition that tells them apart may be missing. Equal values may be shown once.

Legend:
E. coli O157:H7 = conditions: sulfate
S. typhimurium = S. typhimurium counts on produce (apples, celery, onions, cantaloupes) and in treatment solution, 4-L tank; conditions: Example 27, treatment time 2 min

Row | Compound | E. coli O157:H7 counts (E. coli O157:H7) | average S. typhimurium count on cantaloupes (S. typhimurium) | average reduction of S. typhimurium on cantaloupes (S. typhimurium)
1 | CCCCCCCCCCCCOS(=O)(=O)[O-].[Na+] [SDS, sodium dodecyl sulfate] | 7.1 log CFU/ml and 6.9 log CFU/ml and 7.0 log CFU/ml |  | 
2 | acidified sodium chlorite [50 ppm acidified sodium chlorite] |  | 3.43 log CFU/cantaloupe | 0.19 log CFU/cantaloupe
